Values of other authors, collected in patent US7745401B2, “Antifungal peptides and methods of use thereof” (The Board of Regents of the University of Oklahoma, priority 2005, dated 2010).

System: Candida
Conditions: cited from earlier work

Row | Substance | pH of maximal activity
1 | PF-4: platelet factor-4, isolated from human platelets | 5.5
2 | RANTES: Regulated upon Activation Normal T cell Expressed and Secreted protein, isolated from human platelets | 5.5
